Test results published in article PMC11341029, “Genome-wide CRISPR/Cas9 screen identifies SLC39A9 and PIK3C3 as crucial entry factors for Ebola virus infection” (2024).

Molecular target: SLC39A9-6×His-2×Strep (UniProt Q9NUM3)
Test: SPR

GPΔMUC-His (domain or fragment)
Kd: 3 µM
